Results of unrelated studies side by side (data: NIAID ChemDB).

All rows: enzyme or target tests; species: HIV; protein: Reverse transcriptase; measure: fold resistance

Blank or dashed fields: not listed here. Neighbouring rows are from separate reports. Fold resistance: result on the changed form divided by that on wild type.

structure	read by	mutations	value
Cc1c(Sc2ccccc2)n(COCCO)c(=O)[nH]c1=O		RT-K103N Y181I Y188L	>10
CC(C)=CCN1Cc2cccc3[nH]c(=S)n(c23)C[C@@H]1C	nucleotide incorporation	RT-E138K	4.4
CCc1c(Sc2ccccc2)n(COCc2ccccc2)c(=O)[nH]c1=O	RT activity	RT-V90A	0.5
CCOc1ccccc1N1CCN(C(=O)c2cc3cc4c(cc3[nH]2)OCO4)CC1		RT-Y181C P236L	8.93
Cc1cn([C@@H]2O[C@H](CO[Si](C)(C)C(C)(C)C)C3(OS(=O)(=O)C=C3N)[C@H]2O[Si](C)(C)C(C)(C)C)c(=O)n(C)c1=O	nucleotide incorporation	RT-E138K	>150
Cc1cn([C@@H]2O[C@H](CO[Si](C)(C)C(C)(C)C)C3(OS(=O)(=O)C=C3N)[C@H]2O[Si](C)(C)C(C)(C)C)c(=O)n(C)c1=O	nucleotide incorporation / radiometric	RT-P95A	0.57
COc1ccc2c(c1)N(C(=O)OC(C)C)[C@@H](CSC)C(=S)N2	RT activity	RT-D67N K70R T215F K219Q K103N	12.8
CC(C)Nc1cccnc1N1CCN(C(=O)c2cc3ccccc3[nH]2)CC1	nucleotide incorporation	RT-E138K	1.03
Nc1nc2c(ncn2[C@H]2CC[C@@H](COP(=O)(O)OP(=O)(O)OP(=O)(O)O)O2)c(=O)[nH]1		RT-E138K(P66 ONLY)	0.373
COc1ccccc1N1CCN(C(=O)c2cc3cc4c(cc3[nH]2)OCO4)CC1		RT-Y181C P236L	3.14
CC(=O)c1ccc(C)cc1NC(C(N)=O)c1c(Cl)cccc1Cl	RT activity	RT-V106A P225H	15
CC(C)=CCN1Cc2cccc3[nH]c(=S)n(c23)C[C@@H]1C	RT activity	RT-V90A	1.5
CC(C)=CCN1Cc2cccc3[nH]c(=S)n(c23)C[C@@H]1C		RT-E138K(P66 ONLY)	0.8
Cc1cn([C@@H]2O[C@H](CO[Si](C)(C)C(C)(C)C)[C@@]3(OS(=O)(=O)C=C3N)[C@H]2O[Si](C)(C)C(C)(C)C)c(=O)[nH]c1=O	nucleotide incorporation / radiometric	RT-N137Q	0.41
Cc1cn([C@@H]2O[C@H](CO[Si](C)(C)C(C)(C)C)C3(OS(=O)(=O)C=C3N)[C@H]2O[Si](C)(C)C(C)(C)C)c(=O)n(C)c1=O	nucleotide incorporation	RT-V106A	>183
CCc1c([Se]c2ccccc2)n(COCc2ccccc2)c(=O)[nH]c1=O	RT activity	RT-V90A	1
CC(C)Nc1cccnc1N1CCN(C(=O)c2cc3cc4c(cc3[nH]2)OCO4)CC1		RT-Y181C P236L	89.3
Nc1ccn([C@H]2CC[C@@H](COP(=O)(O)OP(=O)(O)OP(=O)(O)O)O2)c(=O)n1		RT-K65R	4.18
Cc1cn([C@@H]2O[C@H](CO[Si](C)(C)C(C)(C)C)C3(OS(=O)(=O)C=C3N)[C@H]2O[Si](C)(C)C(C)(C)C)c(=O)n(C)c1=O	RT activity	RT-V106A P225H	>167

The last 2 rows once more:

structure,read by,mutations,value
Nc1ccn([C@H]2CC[C@@H](COP(=O)(O)OP(=O)(O)OP(=O)(O)O)O2)c(=O)n1,,RT-K65R,4.18
Cc1cn([C@@H]2O[C@H](CO[Si](C)(C)C(C)(C)C)C3(OS(=O)(=O)C=C3N)[C@H]2O[Si](C)(C)C(C)(C)C)c(=O)n(C)c1=O,RT activity,RT-V106A P225H,>167